{"source": "paper PMC4635001", "about": "“Structural Characterisation of FabG from Yersinia pestis, a Key Component of Bacterial Fatty Acid Synthesis” (PLoS ONE, 2015)", "key": {"[1]": {"test_system": "CC(=O)CC(=O)SCCNC(=O)CCNC(=O)[C@H](O)C(C)(C)COP(=O)(O)OP(=O)(O)OC[C@H]1O[C@@H](n2cnc3c(N)ncnc32)[C@H](O)[C@@H]1OP(=O)(O)O", "assay": "purified protein", "conditions": "pH 7.4"}, "[2]": {"test_system": "NC(=O)C1=CN([C@@H]2O[C@H](COP(=O)(O)OP(=O)(O)OC[C@H]3O[C@@H](n4cnc5c(N)ncnc54)[C@H](OP(=O)(O)O)[C@@H]3O)[C@@H](O)[C@H]2O)C=CC1", "assay": "purified protein", "conditions": "pH 7.4; varied: cofactor"}}, "data": [{"substance": "YpFabG (Yersinia pestis)", "values": [{"measurement": "Km", "setting": "[1]", "value": "329.9 ± 31.2", "unit": "µM"}, {"measurement": "Km", "setting": "[2]", "value": "55.1 ± 3.8", "unit": "µM"}]}]}
